Consider six substances from patent EP4233917A1 (Universitat Pompeu Fabra, priority 2022, dated 2023).

The nature of the data set: general procedure: Fmoc solid-phase peptide synthesis. As to conditions: whole synthesis; for isolated yield: scale 50 µM.

Some peptides are written in HELM: one residue between dots, names in brackets for other building blocks, links after the first $.

For the substance “PEPTIDE1{S.G.T.Q.E.E.Y.K.[am]}|PEPTIDE2{[MP17]}$PEPTIDE1,PEPTIDE2,8:R3-1:R2$$$V2.0”, the “final LC-MS purity” value is 97.6% and the isolated yield is on record as 27.7%.
For the substance VQQLTKRFSLK-NH2, the “final LC-MS purity” value was found to be 98.7% and the isolated yield was 15.1%.
On the same counts, the results for “PEPTIDE1{[PP17].S.G.T.Q.E.E.Y.[am]}$$$$V2.0” are 92% and 8%.
In the same order, the values of “PEPTIDE1{S.G.T.Q.E.E.Y.K.[am]}|PEPTIDE2{[PP17]}$PEPTIDE1,PEPTIDE2,8:R3-1:R2$$$V2.0” are 91.1% and 14.3%.
On the same counts, the results for SGTQEEY-NH2 are 94.85% and 28.8%.
Consider “PEPTIDE1{V.Q.Q.L.T.K.R.F.S.L.K.[am]}|PEPTIDE2{[PP13]}$PEPTIDE1,PEPTIDE2,11:R3-1:R2$$$V2.0”, for which the “final LC-MS purity” value is 92.4% and the isolated yield came out at 14.2%.
